Compound potency records, mixed from different reports. Data source: NIAID ChemDB in PubChem.

Shared fields: growth or infection tests; organism: Mycobacterium tuberculosis

Blank or dashed fields: not listed here.

smiles	read by	read-out	cells	mutations	conditions	tested at	strain	value
Oc1ccc([C@H]2Oc3cc(O[C@@H]4OC[C@@H](O)[C@H](O)[C@H]4O)cc(O)c3C[C@@H]2O)cc1O	BACTEC	inhibition				12.5 µg/mL	H37Rv	-2%
NC1CCN(c2nc3c(cc2F)c(=O)c(C(=O)O)cn3-c2ccc(F)cc2F)C1		MBC					ATCC 35823	>8 µg/mL
CC(=O)Nc1ccc(S(=O)(=O)/C(=C/c2ccc(-c3ccc(Br)cc3)o2)c2ccc([N+](=O)[O-])o2)cc1	BACTEC	MIC					H37Rv	≥12.5 µg/mL
CC(=O)Oc1ccccc1C(=O)Nc1ncc([N+](=O)[O-])s1	visual reading	MIC					LAM spoligotype 163	16 µg/mL
Cc1c(N2C[C@@H](N)C3(CC3)C2)c(F)c(N)c2c(=O)c(C(=O)O)cn(C3CC3)c12		MIC90					22 strains (rifampin- isoniazid-resistant)	25 µg/mL
CO/C(C)=C1/NC(=O)[C@H]([C@@H](C)O)NC(=O)c2csc(n2)-c2cc(O)c(-c3nc(C(=O)NCCCN4CCOCC4)cs3)nc2-c2csc(n2)[C@@H]2COC(=O)c3c4c5c(cccc5n3O)COC(=O)[C@@H](O[C@H]3C[C@](C)(O)[C@H](N(C)C)[C@H](C)O3)[C@@H](OC4)[C@H](NC(=O)c3csc1n3)c1nc(cs1)C(=O)N2	broth dilution	MIC		Isoniazid- and moxifloxacin-resistant			Clinical isolate 18343	≤25 µM
C[C@H]1C[C@H](N)CN1c1cc2c(cc1F)c(=O)c(C(=O)O)cn2-c1ccc(F)cc1F		MIC					ATCC 35827	2 µg/mL
COc1ccc(C2C3C(=O)OCCOC(=O)C3C2c2ccc(OC)c(OC)c2)cc1OC	BACTEC	MIC					H37Rv	≥12.5 µg/mL
O=C(O)c1cccc2oc3ccccc3c(=O)c12		inhibition				4 µg/mL	H37Rv	inactive
CCN1CCc2c(sc(NC(=O)c3c(F)c(F)c(F)c(F)c3F)c2C#N)C1	turbidity	MIC					ATCC 35822	20 µM
COc1ccc2c(c1)n([O-])c1cc(C#N)ccc1[n+]2=O		MIC					INH-r	12.5 µg/mL
CC[C@H]1OC(=O)[C@H](C)[C@@H](O[C@H]2C[C@@](C)(OC)[C@@H](O)[C@H](C)O2)[C@H](C)[C@@H](O[C@@H]2O[C@H](C)C[C@H](N(C)C)[C@H]2O)[C@](C)(OC)C[C@@H](C)C(=O)[C@H](C)[C@@H](O)[C@]1(C)O		MIC90					Drug-resistant	>8 µg/mL
CO[C@H]1/C=C/O[C@@]2(C)Oc3c(C)c(O)c4c(O)c(c(/C=N/N5CCN(C)CC5)c(O)c4c3C2=O)NC(=O)/C(C)=C\C=C\[C@H](C)[C@H](O)[C@@H](C)[C@@H](O)[C@@H](C)[C@H](OC(C)=O)[C@@H]1C	broth dilution	MIC		Rifampicin- and isoniazid-resistant			Clinical isolate 10525	>10 µM
CCOC(=O)c1c(NC(=O)c2c(F)c(F)c(F)c(F)c2F)sc2c1CCNC2=O	turbidity	EC90		gyrA mutant (D94N)			H37Rv	3.4 µM
CCOC(=O)C(=O)Cc1ccc(C(=N)N)cc1	resazurin	inhibition				6.25 µg/mL	H37Rv	-8%
CCCCNC(=O)c1c(N)sc2c1CCCC2	resazurin	MIC					H37Rv	>100 µg/mL
O=S(=O)(Cc1cn(-c2ccccc2Cl)nn1)C1c2ccccc2-c2ccccc21	broth dilution	MIC99					Specimen 192	237 µM
CCOc1ccc2c(NN)ccnc2c1		inhibition	VERO			12.5 µg/mL	H37Rv	88%
O=C(O)c1ccc2oc3c(C(=O)O)cccc3c(=O)c2c1		inhibition				32 µg/mL	H37Rv	inactive
CCN1CCc2c(sc(N)c2C(=O)Nc2ccccc2)C1	resazurin	MIC					H37Rv	>100 µg/mL
C/C(=N\NC(=O)c1ccncc1)c1ccccc1		MIC					H37Rv (ethambutol-resistant)	2 µg/mL
COC(=O)c1cccc2c(=O)c3ccccc3oc12		inhibition				32 µg/mL	H37Rv	inactive
Fc1ccc(-n2cc(CNC3c4ccccc4-c4ccccc43)nn2)cc1	broth dilution	MIC99					Specimen 192	281 µM
CC1COc2c(N3CCN(C)CC3)c(F)cc3c(=O)c(C(=O)O)cn1c23	agar	MIC					07-10342	1 µg/mL
CC(NNC(=O)c1ccncc1)c1ccc(F)cc1		MBC					H37Rv	25 µg/mL
N#Cc1snc2sc(=O)sc12	BACTEC	MIC					H37Rv	32 µg/mL
CCOC(=O)c1c(NC(=O)C2C=C(C(F)(F)F)C=C2C(F)(F)F)sc2c1CCCC2	resazurin	MIC					H37Rv	0.177 µg/mL
CC(=O)NC[C@H]1CN(c2ccc(N3CCN(c4ccc([N+](=O)[O-])s4)CC3)c(F)c2)C(=O)O1		MIC					ATCC	<0.125 µg/mL
O=C(N/N=C/c1ccccc1F)c1ccncc1		MIC					Ethionamide-resistant	>1.6 µg/mL
CC[C@H]1OC(=O)[C@H](C)[C@@H](O[C@H]2C[C@@](C)(OC)[C@@H](O)[C@H](C)O2)[C@H](C)[C@@H](O[C@@H]2O[C@H](C)C[C@H](N(C)C)[C@H]2O)[C@](C)(OC)C[C@@H](C)C(=O)[C@H](C)[C@@H](O)[C@]1(C)O		MIC					84396	>4 µg/mL
COC(=O)C(=O)C(C(=O)C(=O)Nc1ccc(Cl)c(Cl)c1)c1nc2ccc(C(=O)c3ccccc3)cc2[nH]c1=O	BACTEC	MIC bound					H37Rv	>12.5 µg/mL
COc1ccc2c(N/N=C/c3ccc4c(c3)OCO4)cc(C)nc2c1		inhibition	VERO			12.5 µg/mL	H37Rv	100%
O=[N+]([O-])c1cn2c(n1)OC[C@@H](OCc1ccc(OCc3ccccc3)cc1)C2		MIC					H37Rv-T2-3547 (PA-824-resistant)	0.2 µM
C/C(=N/NC(=S)N1CCC(C)CC1)c1nccnc1C		MIC					EMB-R	1.6 µg/mL
NNC(=O)c1ccncc1	broth dilution	MIC					Clinical isolate 30034	≤1 µM
C[C@H]1COc2c(N3CCN(C)CC3)c(F)cc3c(=O)c(C(=O)O)cn1c23		MBC					ATCC 35822	1 µg/mL
O=C(O)c1ccc2oc3ccc([N+](=O)[O-])cc3c(=O)c2c1		inhibition				32 µg/mL	H37Rv	inactive
CN[C@@H]1[C@H](O[C@H]2[C@H](O[C@H]3[C@H](O)[C@@H](O)[C@H](N=C(N)N)[C@@H](O)[C@@H]3N=C(N)N)O[C@@H](C)[C@]2(O)C=O)O[C@@H](CO)[C@H](O)[C@H]1O		MIC					42494	<2 µg/mL
O=C(NNCc1ccccc1F)c1ccncc1		MIC					Kanamycin-resistant	0.4 µg/mL
Cc1cc(S(=O)(=O)O)c(NC(=O)c2oc3cc(O)ccc3c(=O)c2C)cc1Cl	BACTEC	MIC bound					H37Rv	>12.5 µg/mL
O=C(NNCc1ccccc1)c1ccncc1		MIC					H37Rv	0.2 µg/mL
CC1(Cl)CC2OC3(Br)C=CC(C)(O)C2(CC1Br)C3(C)C	BACTEC	MIC bound					H37Rv	>12.5 µg/mL
C=C(NC(=O)c1csc(-c2nc3c(cc2O)-c2nc(cs2)C(=O)N[C@@H]([C@@H](C)O)C(=O)N/C(=C(\C)OC)c2nc(cs2)C(=O)N[C@@H]2c4nc(cs4)C(=O)N[C@@H](COC(=O)c4c5c6c(cccc6n4O)COC(=O)[C@@H](O[C@H]4C[C@](C)(O)[C@H](N(C)C)[C@H](C)O4)[C@H]2OC5)c2nc-3cs2)n1)C(N)=O	broth dilution	MIC					Clinical isolate 11677	≤25 µM
COC(=O)c1cccc2c(=O)c3cc([N+](=O)[O-])ccc3oc12		inhibition				4 µg/mL	H37Rv	inactive
CCN1CCc2c(sc(NC(=O)c3c(F)c(F)c(F)c(F)c3F)c2C(=O)NC)C1	turbidity	EC90		rpoB S522L mutant			H37Rv	4.4 µM
Cn1c(=O)c2c(c3ccccc31)Oc1oc3ccc4ccccc4c3c(=O)c1C2	BACTEC	inhibition				12.5 µg/mL	H37Rv	0%
CC[C@H]1OC(=O)[C@H](C)[C@@H](O[C@H]2C[C@@](C)(OC)[C@@H](O)[C@H](C)O2)[C@H](C)[C@@H](O[C@@H]2O[C@H](C)C[C@H](N(C)C)[C@H]2O)[C@](C)(OC)C[C@@H](C)C(=O)[C@H](C)[C@@H](O)[C@]1(C)O		MIC90					22 strains (rifampin- isoniazid-resistant)	25 µg/mL
O=C(O)c1cnc(Cl)cn1		MIC					DHMH 4319	128 µg/mL
c1ccc(-n2cc(CSC3c4ccccc4-c4ccccc43)nn2)cc1	broth dilution	MIC99					Specimen 192	141 µM
O=c1oc2cccc(O)c2c(O)c1Cc1ccccc1	BACTEC	inhibition				12.5 µg/mL	H37Rv	0%
CC1=CC(=O)N(CC2CCC3CC2C3(C)C)C1=O		MIC					Clinical isolate (isoniazid-resistant)	≤20 µg/mL
C/C(=N\NC(=O)c1ccncc1)c1ccccc1F	colony count	EC90	Macrophages		inside macrophages		Erdman	0.081 µg/mL
CCNC(=O)c1c(NC(=O)c2c(F)c(F)c(F)c(F)c2F)sc2c1CCN(CC)C2	turbidity	MIC		gyrA mutant (D94N)			H37Rv	9.8 µM
Cc1cc(NN)c2cc(C3CCCCC3)ccc2n1		MIC	VERO				H37Rv	6.25 µg/mL
CC1(C)C2CCC(CN3C(=O)c4ccccc4C3=O)C1C2		MIC					H37Ra	≤20 µg/mL
Clc1ccc(-n2cc(CNC3c4ccccc4-c4ccccc43)nn2)cc1	broth dilution	MIC99					H37Rv	268 µM
Cc1cc(/C=N/Nc2ccnc3ccc(C4CCCCC4)cc23)c(C)n1-c1ccccc1		inhibition	VERO			12.5 µg/mL	H37Rv	100%
CC(NNC(=O)c1ccncc1)c1cccc(C(F)(F)F)c1		MIC					H37Rv (ethambutol-resistant)	≤0.49 µg/mL
CC1=CC(O/C=C2\C(=O)OC3C=CCC23)OC1=O	BACTEC	MIC bound					H37Rv	>12.5 µg/mL
CCCCCCCCCN1C(=O)C=C(C)C1=O		MIC					H37Rv	≤20 µg/mL
CC1CN(c2cc3c(cc2F)c(=O)c(C(=O)O)cn3-c2ccc(F)cc2F)CCN1		MIC50					DRUG-SUS	1 µg/mL
CCCCCCCCC(=S)N1CCN(c2ccccc2)CC1	resazurin	MIC bound					H37Rv	>6.25 µg/mL
CCCCCC1(C)Cn2cc([N+](=O)[O-])nc2O1		MIC					H37Rv-5A1 (PA-824-resistant)	>100 µM
N#C[B][n+]1ccc(C(=O)NNCc2ccccc2)cc1	colony count	EC50	Macrophages		inside macrophages		Erdman	<0.116 µg/mL
Cc1ncc2c(n1)CCC1=C2OS(=O)(=O)CC1N(C)C	BACTEC	MIC bound					H37Rv	>12.5 µg/mL
N#Cc1cccc2oc3ccccc3c(=O)c12		inhibition				8 µg/mL	H37Rv	inactive
CCCCCCCCCN1C(=O)CC(C)(SCCO)C1=O		MIC					Clinical isolate (isoniazid-resistant)	≤20 µg/mL
CCOC(=O)c1c(NC(=O)c2c(F)c(F)c(F)c(F)c2F)sc2c1CCOC2	turbidity	MIC		rpoB S522L mutant			H37Rv	0.25 µM
CN1CCN(CCSC(=O)N2c3ccccc3Sc3ccc(Cl)cc32)CC1	BACTEC	MIC bound					H37Rv	>12.5 µg/mL
COc1c(N2CCNC(C)C2)c(F)cc2c(=O)c(C(=O)O)cn(C3CC3)c12		MIC50					18 strains (levofloxacin-resistant)	0.78 µg/mL
CO[C@@]12[C@H](COC(N)=O)C3=C(C(=O)C(C)=C(NCCC#N)C3=O)N1C[C@@H]1N[C@@H]12	BACTEC	inhibition				0.5 µM		63%
C/C(=N\NC(=O)c1ccncc1)c1ccc(F)cc1		MIC					H37Rv (ethionamide-resistant)	>32 µg/mL
CSC(=S)N/N=C(/C)c1cccs1	BACTEC	inhibition				128 µg/mL	H37Rv	100%
CO[C@H]1/C=C/O[C@@]2(C)Oc3c(C)c(O)c4c(O)c(c5c(c4c3C2=O)NC2(CCN(CC(C)C)CC2)N=5)=NC(=O)/C(C)=C\C=C\[C@H](C)[C@H](O)[C@@H](C)[C@@H](O)[C@@H](C)[C@H](OC(C)=O)[C@@H]1C		MIC					2227 (rifampicin-resistant)	0.25 µg/mL
CC(=O)Nc1ccc(S(=O)(=O)NNc2nc(N(C)C)nc(N(C)C)n2)cc1	BACTEC	inhibition				12.5 µg/mL	H37Rv	10%
CCCCOc1ccc2nccc(NN)c2c1		inhibition	VERO			12.5 µg/mL	H37Rv	99%
CC(C)(CCC(C)(C)N1OC1c1ccccc1)N1OC1c1ccccc1	BACTEC	MIC bound					H37Rv	>12.5 µg/mL
Cc1ccc2oc3ccccc3c(=O)c2c1		inhibition				4 µg/mL	H37Rv	inactive

Inhibition is in % at the dose shown (toxicity tests: loss of growth or viability). A number after MIC or MFC names an inhibition level or a share of isolates. Rows are shuffled and stem from different studies. ECn is the concentration giving n% inhibition of infection, replication or growth. "inactive" is the filed call at that dose; no cut-off is given. MIC bound comes from a single tested concentration.